Where a sequence shows no end group, the ends are not given.
Assay: general procedure: Fmoc solid-phase peptide synthesis; Rink amide MBHA resin; HBTU / N-methylmorpholine
Conditions: whole synthesis, molar % yield, scale of the general procedure 0.1 mmol

Sequence: RPRRPRLPW
- isolated yield: 45%

Sequence: RPPWRPPW
- isolated yield: 39%

Reference: publication PMC7730182 (International Journal of Molecular Sciences, 2020)
